Consider two compounds from publication PMC6471365 (2019).

By UniProt entry, the sequences of proteins in these tests, tags left out. Residues count along the entry.
UniProt A0A0H3KAV3, 32-226 limits assumed: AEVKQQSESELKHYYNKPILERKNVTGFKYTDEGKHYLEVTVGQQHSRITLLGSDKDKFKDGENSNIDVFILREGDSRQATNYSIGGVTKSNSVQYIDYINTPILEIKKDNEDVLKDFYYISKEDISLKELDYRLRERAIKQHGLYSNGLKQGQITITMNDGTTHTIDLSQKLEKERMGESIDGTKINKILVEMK

This test addresses SSL1 (Staphylococcus aureus superantigen-like protein SSL1), recombinant, homodimer (Staphylococcus aureus, UniProt A0A0H3KAV3). As to the kind of experiment: inhibition of Chromozym PL hydrolysis, OD405. Conditions: substrate Chromozym PL, 37 °C.

Regarding `Cc1ccc(S(=O)(=O)N[C@@H](CCCCN)C(=O)CCl)cc1`, where the note is “1000 µM, inhibitor 1 mM”, the % Activity of Control ^1 was 0%.

In the case of `NCCc1ccc(S(=O)(=O)F)cc1`, the % Activity of Control ^1 (10000 µM, inhibitor 10 mM) is 0%.
